Data published in paper PMC9115767 (European journal of medicinal chemistry, 2021).

Conditions: human, microsomes, 1 h

Remaining (NCF = 60min): 96.7%
Remaining (T = 60min): 0.0%
Structure (SMILES): O=C(O)Cc1ccccc1Nc1c(Cl)cccc1Cl [Diclofenac]
